A mixed list of measured activities; the numbers were collected in NIAID ChemDB.

Shared fields: tests in culture; agent: Hepatitis C virus; cells: Huh7; endpoint: EC50

Rows are shuffled and stem from different studies. Blank or dashed fields: not listed here. a–b is a range or a potency band. ECn is the concentration giving n% inhibition of infection, replication or growth.

smiles | strain or isolate | method | value
Nc1ccc(-c2noc(-c3cc(Br)ccc3O)n2)nc1 | - | replicon | >32 µM
C=CC1CC1(NC(=O)[C@@H]1C[C@@H](OC(=O)Nc2cc(OC)ccc2-n2cccn2)CN1C(=O)[C@@H](NC(=O)OC(C)(C)C)C(C)(C)C)C(=O)NS(=O)(=O)C1CC1 | 1b | replicon | 0.1–1 µM
C=CC[C@](C)(NC(=O)[C@H]1C[C@@H](Oc2nc3ccoc3c3ccccc23)CN1C(=O)[C@@H](NC(=O)OC(C)(C)C)C(C)(C)C)C(=O)NS(=O)(=O)C1CC1 | BMS | replicon | <0.1 µM
O=[N+]([O-])c1ccccc1-n1nccc1-c1ccccc1O | - | replicon | 5.3 µM
CNC(=O)c1c(-c2ccc(F)cc2)oc2cc(-c3c(C)n[nH]c3C)c(OC)cc12 | - | replicon | <1 µM
Cc1cccnc1-c1nc(-c2cc(NC(=O)OC(C)(C)C)ccc2O)no1 | - | replicon | 4.7 µM
CNC(=O)c1c(-c2ccc(F)cc2)oc2cc(N(C)S(C)(=O)=O)c(OC)cc12 | - | replicon | <1 µM
COc1ccccc1-c1ccnn1-c1ccccc1F | - | replicon | 27 µM
COc1ccc2c(O[C@@H]3CC4C(=O)NC5(C(=O)O)CC5/C=C\CCCCCC(NC(=O)OC(C)(C)C)C(=O)N4C3)ccnc2c1 | - | replicon | 1.2 µM
CNC(=O)c1c(-c2ccc(F)cc2)oc2cc(N(C)S(C)(=O)=O)c(OCc3ccc(F)cc3F)cc12 | - | replicon | <1 µM
C=CC[C@](C)(NC(=O)[C@H]1C[C@@H](Oc2nc(Br)c(OCOCC[Si](C)(C)C)c3ccccc23)CN1C(=O)[C@@H](NC(=O)OC(C)(C)C)C(C)(C)C)C(=O)NS(=O)(=O)C1CC1 | BMS | replicon | 0.1–1 µM
CC(=O)Nc1ccc(-c2ccc3nc(N)nc(N4CCS(=O)(=O)CC4)c3n2)cc1 | - | replicon | <0.3 µM
COc1cc(O)c(-c2noc(-c3ncccc3C)n2)c(OC)c1 | - | replicon | 0.7 µM
CNC(=O)c1c(-c2ccc(F)cc2)oc2cc(NC(C)(C)C)c(OC(C)C)cc12 | - | replicon | <10 µM
C=CC1CC1(NC(=O)[C@@H]1C[C@@H](OC(=O)Nc2cc(C(F)(F)F)ccc2N2CCC(C(F)(F)F)CC2)CN1C(=O)[C@@H](NC(=O)OC(C)(C)C)C(C)(C)C)C(=O)NS(=O)(=O)C1CC1 | 1b | replicon | <0.1 µM
CONC(=O)c1ccc(-c2ccc3nc(N)nc(OC(C)C)c3n2)cc1 | - | replicon | <0.3 µM
CC[C@H]1C[C@@]1(NC(=O)[C@@H]1C[C@@H](Oc2nccc3cc(OC)ccc23)CN1C(=O)[C@@H](NC(=O)OC(C)(C)C)C(C)(C)C)C(=O)NS(=O)(=O)C(C)C | BMS | replicon | <0.1 µM
COc1ccc(OCc2ccccc2)c(-c2ccn(-c3nccc(OC)c3OC)n2)c1 | - | replicon | >32 µM
CC(C)C(=O)N1c2ccccc2NC2=C(C(=O)CC(C)(C)C2)C1c1ccc(Br)s1 | - | replicon | 4.438 µM
C=CC[C@](C)(NC(=O)[C@H]1C[C@@H](Oc2n[nH]c(=O)c3ccccc23)CN1C(=O)[C@@H](NC(=O)OC(C)(C)C)C(C)(C)C)C(=O)NS(=O)(=O)C1CC1 | BMS | replicon | 1–10 µM
C=CC1CC1(NC(=O)[C@@H]1C[C@@H](OC(=O)Nc2ccccc2-n2nc3cc(OC)c(OC)cc3n2)CN1C(=O)[C@@H](NC(=O)OC(C)(C)C)C(C)(C)C)C(=O)NS(=O)(=O)C1CC1 | 1b | replicon | <0.1 µM
CC1(C)CC(=O)C2=C(C1)Nc1ccc(C(=O)c3ccccc3)cc1NC2c1ccccc1Cl | - | replicon | 2.636 µM
C=CC[C@](C)(NC(=O)[C@H]1C[C@@H](Oc2cccc3c(Cl)ccnc23)CN1C(=O)[C@@H](NC(=O)OC(C)(C)C)C(C)(C)C)C(=O)NS(=O)(=O)C1CC1 | BMS | replicon | 1–10 µM
CCC(=O)N1c2ccccc2NC2=C(C(=O)CC(c3ccccc3OCc3ccccc3)C2)C1c1ccccc1 | - | replicon | 10.32 µM
C=CC1CC1(NC(=O)[C@@H]1C[C@@H](OC(=O)Nc2ccccc2CC)CN1C(=O)[C@@H](NC(=O)OC(C)(C)C)C(C)(C)C)C(=O)NS(=O)(=O)C1CC1 | 1b | replicon | 1–10 µM
C=C[C@@H]1C[C@]1(NC(=O)[C@@H]1C[C@@H](Oc2nccc3cc(OC)ccc23)CN1C(=O)[C@@H](NC(=O)OC(C)(C)C)C(C)(C)C)C(=O)NS(=O)(=O)C1CCC1 | BMS | replicon | <0.1 µM
CNC(=O)c1c(-c2ccc(F)cc2)oc2cc(N(C(C)C)S(C)(=O)=O)c(OC(C)C)cc12 | - | replicon | <1 µM
COc1ccc2c(O[C@@H]3C[C@@H](C(=O)NC4(C(=O)O)CC4)N(C(=O)[C@@H](NC(=O)[C@@H](NC(C)=O)C4CCCCC4)C(C)C)C3)ccnc2c1 | - | replicon | >20 µM
CC1=C(C(=O)O[C@H](C)c2ccccc2)CNC(=S)N1 | - | ELISA | 1–10 µM
CCOc1nc(N)nc2ccc(-c3cccc(NS(=O)(=O)C(C)C)c3)nc12 | - | replicon | <0.3 µM
C=CC1CC1(NC(=O)[C@@H]1C[C@@H](OC(=O)Nc2ccccc2CCC)CN1C(=O)[C@@H](NC(=O)OC(C)(C)C)C(C)(C)C)C(=O)NS(=O)(=O)C1CC1 | 1b | replicon | 1–10 µM
CNC(=O)c1c(-c2ccc(F)cc2)oc2cc(C(C)(C)O)c(C)cc12 | - | replicon | <10 µM
C=C[C@@H]1C[C@]1(NC(=O)[C@@H]1C[C@@H](Oc2cc(-n3cccn3)cc3ccncc23)CN1C(=O)[C@@H](NC(=O)OC(C)(C)C)C(C)(C)C)C(=O)NS(=O)(=O)C1CC1 | BMS | replicon | 0.1–1 µM
CNC(=O)c1c(-c2ccc(F)cc2)oc2cc(N(C)S(=O)(=O)CC3CC3)c(OC)cc12 | - | replicon | <1 µM
Cc1ccccc1-c1noc(-c2ccc(OCCO)cc2O)n1 | - | replicon | 2.5 µM
CC1=C(C(=O)OCCc2cccc([N+](=O)[O-])c2)C(COC(=O)OCC2COC(C)(C)O2)NC(=S)N1 | - | ELISA | <1 µM
CNC(=O)C1c2cc(OC(C)C)c(N3CCC(N)C3)cc2OC1c1ccc(F)cc1 | - | replicon | <30 µM
COc1ccc(OC)c(C2Nc3ccc(C(=O)c4ccccc4)cc3NC3=C2C(=O)CCC3)c1 | - | replicon | 11.3 µM
COc1cc(Cl)cc(COC(=O)C2=C(C)NC(=S)NC2)c1 | - | ELISA | <1 µM
C[C@@]1(O)[C@H](O)[C@@H](CO)O[C@H]1n1ccc(=O)[nH]c1=O | - | replicon | 34.7 µM
C=CC1CC1(NC(=O)[C@@H]1C[C@@H](OC(=O)Nc2ccccc2-c2ccccc2)CN1C(=O)[C@@H](NC(=O)OC(C)(C)C)C(C)(C)C)C(=O)NS(=O)(=O)C1CC1 | 1b | replicon | 0.1–1 µM
Cc1ccc(S(=O)(=O)Nc2cc(-c3ccc(S(C)(=O)=O)cc3)sc2C(=O)O)c(C)c1 | - | replicon | 39 µM
CNC(=O)c1c(-c2ccc(F)cc2)oc2cc(C(C)=O)c(OC(C)C)cc12 | - | replicon | <1 µM
C=C[C@@H]1C[C@]1(NC(=O)[C@@H]1C[C@@H](Oc2noc3c(OC)cccc23)CN1C(=O)[C@@H](NC(=O)OC(C)(C)C)C(C)(C)C)C(=O)NS(=O)(=O)C1CC1 | BMS | replicon | 0.1–1 µM
CC(C)CC(=O)N1c2ccccc2NC2=C(C(=O)CC(C)(C)C2)C1c1ccc(Cl)cc1 | - | replicon | 19.5 µM
C=CC1CC1(NC(=O)[C@@H]1C[C@@H](OC(=O)Nc2cc(Cl)ccc2OC)CN1C(=O)[C@@H](NC(=O)OC(C)(C)C)C(C)(C)C)C(=O)NS(=O)(=O)C1CC1 | 1b | replicon | 0.1–1 µM
CCOc1nc(N)nc2ccc(-c3cccc(NS(=O)(=O)CC(F)(F)F)c3)nc12 | - | replicon | 0.3–1 µM
CC1=C(C(=O)OCc2cc3c(C)nn(C)c3s2)CNC(=S)N1 | - | ELISA | >20 µM

The last 6 rows once more:

smiles | strain or isolate | method | value
CNC(=O)c1c(-c2ccc(F)cc2)oc2cc(C(C)=O)c(OC(C)C)cc12 | - | replicon | <1 µM
C=C[C@@H]1C[C@]1(NC(=O)[C@@H]1C[C@@H](Oc2noc3c(OC)cccc23)CN1C(=O)[C@@H](NC(=O)OC(C)(C)C)C(C)(C)C)C(=O)NS(=O)(=O)C1CC1 | BMS | replicon | 0.1–1 µM
CC(C)CC(=O)N1c2ccccc2NC2=C(C(=O)CC(C)(C)C2)C1c1ccc(Cl)cc1 | - | replicon | 19.5 µM
C=CC1CC1(NC(=O)[C@@H]1C[C@@H](OC(=O)Nc2cc(Cl)ccc2OC)CN1C(=O)[C@@H](NC(=O)OC(C)(C)C)C(C)(C)C)C(=O)NS(=O)(=O)C1CC1 | 1b | replicon | 0.1–1 µM
CCOc1nc(N)nc2ccc(-c3cccc(NS(=O)(=O)CC(F)(F)F)c3)nc12 | - | replicon | 0.3–1 µM
CC1=C(C(=O)OCc2cc3c(C)nn(C)c3s2)CNC(=S)N1 | - | ELISA | >20 µM